A mixed list of measured activities; the numbers were collected in NIAID ChemDB.

Shared fields: growth or infection tests; organism: Herpes simplex virus 1; method: cytopathic effect; read-out: EC50

Rows are shuffled and stem from different studies. ECn: concentration that inhibits the pathogen or its effect by n%. Blank or dashed fields: not listed here.

{"smiles": "Nc1ccn(C[C@@H](CO)OCP(=O)(O)O)c(=O)n1", "cell line": "HEL", "strain": "HU-10", "value": "4.65 µM"}
{"smiles": "Nc1nc2c(ncn2CCCC(O)CF)c(=O)[nH]1", "cell line": "ESM", "strain": "B2006 (TK-)", "value": ">400 µg/mL"}
{"smiles": "CO[C@H](CO)[C@@H](O)CCn1ccc(N)nc1=O", "cell line": "E6SM", "strain": "KOS", "value": ">400 µg/mL"}
{"smiles": "COc1ccc(-c2[nH]c3nc4c(ncn4COCCO)c(=O)n3c2-c2ccc(C(c3ccccc3)c3ccccc3)cc2)cc1", "strain": "KOS", "value": ">16 µg/mL"}
{"smiles": "Nc1ncnc2c1ncn2C1OC[C@H](CO)[C@H]1CO", "cell line": "VERO", "value": ">100 µg/mL"}
{"smiles": "CC1(CO)CCC(Cn2nnc3c(Cl)ncnc32)C1(C)C", "cell line": "E6SM", "strain": "KOS", "value": ">200 µg/mL"}
{"smiles": "Nc1ncnc2c1ncn2N1CC[C@H](CO)[C@H]1CO", "cell line": "VERO", "value": ">100 µg/mL"}
{"smiles": "O=C1CSc2nnc(-c3cn(-c4ccccc4)nc3-c3ccccc3)n2N1", "cell line": "HEL", "strain": "KOS (TK-)", "value": ">16 µg/mL"}
{"smiles": "Nc1ncnc2c1ncn2C1C[C@@H](CO)[C@@H](CO)S1", "cell line": "VERO", "value": ">100 µg/mL"}
{"smiles": "CC1(C)[C@@H](CCO)C[C@H]1n1nnc2c(=O)[nH]c(N)nc21", "cell line": "E6SM", "strain": "KOS", "value": "300 µg/mL"}
{"smiles": "CC1(CO)CCC(Cc2nc3ncnc(N)c3[nH]2)C1(C)C", "cell line": "E6SM", "strain": "TK-/TK+ (VMW 1837)", "value": "40 µg/mL"}
{"smiles": "O=c1c2ncn(COCCO)c2[nH]c2ncc(CO)n12", "strain": "F", "value": ">3.2 µg/mL"}
{"smiles": "O=c1[nH]c(=O)n([C@H]2C[C@H](O)[C@@H](CO)O2)cc1Br", "cell line": "Human skin fibroblasts", "value": "0.32 µM"}
{"smiles": "O=C(Nn1c(-c2cn(-c3ccccc3)nc2-c2ccccc2)n[nH]c1=S)c1ccccc1", "cell line": "HEL", "strain": "KOS", "value": ">16 µg/mL"}
{"smiles": "CCCCNc1cn([C@@H]2C[C@H](CO)[C@@H](O)C2)c(=O)[nH]c1=O", "cell line": "VERO", "strain": "377", "value": "290 µg/mL"}
{"smiles": "O=c1[nH]c(=O)n([C@H]2C[C@H](O)[C@@H](CO)O2)cc1I", "cell line": "Primary rabbit kidney cells", "value": "0.57 µM"}
{"smiles": "Nc1nc2c(ncn2[C@H]2CC[C@H](O)[C@H]2CO)c(=O)[nH]1", "cell line": "PRK", "strain": "377", "value": "<0.3 µg/mL"}
{"smiles": "CC1(C)[C@@H](CCO)C[C@H]1n1nnc2c(N)ncnc21", "cell line": "E6SM", "strain": "KOS", "value": ">400 µg/mL"}
{"smiles": "O=c1[nH]c(=O)n([C@H]2C[C@H](O)[C@@H](CO)O2)cc1/C=C/Br", "cell line": "HEL", "strain": "HU-10", "value": "150 µM"}
{"smiles": "COc1ccc(-c2cn3c(=O)c4ncn(COC(CO)CO)c4nc3[nH]2)cc1", "strain": "VMW 1837", "value": "0.04 µg/mL"}
{"smiles": "CCOC(=O)C1Sc2nnc(-c3cn(-c4ccccc4)nc3-c3ccccc3)n2NC1=O", "cell line": "HEL", "strain": "KOS", "value": ">80 µg/mL"}
{"smiles": "CC(=O)NS(=O)(=O)c1cc(C)c(NC(=O)CN2C(=O)c3ccccc3S2(=O)=O)cc1C", "cell line": "HEL", "strain": "KOS", "value": ">100 µM"}
{"smiles": "O=C(O)P(=O)(O)O", "cell line": "HEL", "strain": "HU-5", "value": "584 µM"}
{"smiles": "CC1(CO)CCC(Cn2nnc3c(=O)[nH]cnc32)C1(C)C", "cell line": "E6SM", "strain": "TK-/B2006", "value": ">200 µg/mL"}
{"smiles": "CC1(C)[C@@H](CCO)C[C@H]1n1cnc2c(=O)[nH]cnc21", "cell line": "E6SM", "strain": "TK-/VMW 1837", "value": ">400 µg/mL"}
{"smiles": "O=c1c2ncn(COCCO)c2[nH]c2ncc(C(c3ccccc3)(c3ccccc3)c3ccccc3)n12", "strain": "VMW 1837", "value": ">16 µg/mL"}
{"smiles": "Nc1nc2c(ncn2COCCO)c(=O)[nH]1", "cell line": "HFF", "strain": "11573 PAAR5 (acyclovir-resistant)", "value": "5 µg/mL"}
{"smiles": "CSc1ncnc2c1ncn2[C@@H]1C[C@H](CO)[C@@H](O)[C@H]1O", "cell line": "VERO", "strain": "HF", "value": "59 µg/mL"}
{"smiles": "CC1(C)[C@@H](CCO)C[C@H]1n1cnc2c(=O)[nH]c(N)nc21", "cell line": "E6SM", "strain": "KOS", "value": "300 µg/mL"}
{"smiles": "O=c1[nH]c(=O)n([C@H]2C[C@H](O)[C@@H](CO)O2)cc1/C=C/Br", "cell line": "HEL", "strain": "KOS", "value": "0.02 µM"}
{"smiles": "Nc1ncnc2c1ncn2[C@@H]1C[C@H](CO)[C@@H](O)[C@@H]1O", "cell line": "VERO", "strain": "HF", "value": "5.9 µg/mL"}
{"smiles": "CSc1nnc(-c2ccccc2S(=O)(=O)NC(C)C)o1", "cell line": "HEL", "strain": "KOS", "value": ">100 µM"}
{"smiles": "c1ccc(-c2nn3c(-c4cn(-c5ccccc5)nc4-c4ccccc4)nnc3s2)cc1", "cell line": "HEL", "strain": "KOS (TK-)", "value": ">3.2 µg/mL"}
{"smiles": "CC(C1=NNC(=NCc2ccccc2)SC1)N1C(=O)c2ccccc2C1=O", "cell line": "VERO", "strain": "VR733", "value": "77.04 µg/mL"}
{"smiles": "Nc1nc(Cl)c2c(nnn2[C@@H]2O[C@H](CO)[C@@H](O)[C@H]2O)n1", "cell line": "VERO", "strain": "HF", "value": "81 µg/mL"}
{"smiles": "O=c1[nH]c(=O)n([C@H]2C[C@H](O)[C@@H](CO)O2)cc1Cl", "cell line": "Primary rabbit kidney cells", "value": "0.76 µM"}
{"smiles": "O=c1[nH]c(=O)n([C@H]2C[C@H](O)[C@@H](COP(=O)(O)O)O2)cc1CCc1ccccc1", "cell line": "PRK", "strain": "F", "value": "10 µg/mL"}
{"smiles": "CC(C)NS(=O)(=O)c1ccccc1C(=O)N/N=C/c1ccccc1", "cell line": "HEL", "strain": "KOS", "value": ">100 µM"}
{"smiles": "CC(C1=NNC(=NCc2ccc(Cl)cc2)SC1)N1C(=O)c2ccccc2C1=O", "cell line": "VERO", "strain": "VR733", "value": ">111 µg/mL"}
{"smiles": "CC(=O)OCCOCn1cnc2c(=O)n3cc(-c4ccc5ccccc5c4)[nH]c3nc21", "strain": "F", "value": ">16 µg/mL"}
{"smiles": "O=C1c2ccccc2C(=O)N1CCC1=NNC(=Nc2ccccc2)SC1", "cell line": "VERO", "strain": "VR733", "value": ">111 µg/mL"}
{"smiles": "Cc1cn(CC[C@H](O)CCO)c(=O)[nH]c1=O", "cell line": "E6SM", "strain": "McIntyre", "value": ">400 µg/mL"}
{"smiles": "Nc1ccn(C(CF)CCCO)c(=O)n1", "cell line": "ESM", "strain": "B2006 (TK-)", "value": ">400 µg/mL"}
{"smiles": "Nc1ccn(N2C[C@H](CO)[C@H]2CO)c(=O)n1", "cell line": "VERO", "value": ">100 µg/mL"}
{"smiles": "CO[C@H](CO)[C@@H](O)CCn1cnc2c(=O)[nH]c(N)nc21", "cell line": "E6SM", "strain": "McIntyre", "value": ">400 µg/mL"}
{"smiles": "Nc1nc2c(ncn2COC(CO)CO)c(=O)[nH]1", "cell line": "HEL", "changes": "TK-deficient acyclovir-resistant", "strain": "KOS", "value": "10 µM"}
{"smiles": "Nc1ncnc2c1ncn2CCCC(O)CF", "cell line": "ESM", "strain": "KOS", "value": ">400 µg/mL"}
{"smiles": "Nc1nc2c(ncn2N2C[C@H](CO)[C@H]2CO)c(=O)[nH]1", "cell line": "VERO", "value": "5.36 µg/mL"}
{"smiles": "Cc1ccc(N=C2NN=C(C(C)N3C(=O)c4ccccc4C3=O)CS2)cc1", "cell line": "VERO", "strain": "VR733", "value": ">111 µg/mL"}
{"smiles": "O=c1[nH]c(=O)n([C@H]2C[C@H](O)[C@@H](CO)O2)cc1I", "cell line": "PRK", "strain": "McIntyre", "value": "0.1 µg/mL"}
{"smiles": "Nc1ncnc2c1ncn2CC[C@H](O)CCO", "cell line": "E6SM", "strain": "B2006 (TK-)", "value": ">400 µg/mL"}

Repeating the final 8 entries:

smiles	cell line	changes	strain	value
Nc1ccn(N2C[C@H](CO)[C@H]2CO)c(=O)n1	VERO			>100 µg/mL
CO[C@H](CO)[C@@H](O)CCn1cnc2c(=O)[nH]c(N)nc21	E6SM		McIntyre	>400 µg/mL
Nc1nc2c(ncn2COC(CO)CO)c(=O)[nH]1	HEL	TK-deficient acyclovir-resistant	KOS	10 µM
Nc1ncnc2c1ncn2CCCC(O)CF	ESM		KOS	>400 µg/mL
Nc1nc2c(ncn2N2C[C@H](CO)[C@H]2CO)c(=O)[nH]1	VERO			5.36 µg/mL
Cc1ccc(N=C2NN=C(C(C)N3C(=O)c4ccccc4C3=O)CS2)cc1	VERO		VR733	>111 µg/mL
O=c1[nH]c(=O)n([C@H]2C[C@H](O)[C@@H](CO)O2)cc1I	PRK		McIntyre	0.1 µg/mL
Nc1ncnc2c1ncn2CC[C@H](O)CCO	E6SM		B2006 (TK-)	>400 µg/mL